Measured values from several laboratories, pooled; numbers as filed in NIAID ChemDB.

Common to all: enzyme or target tests; species: HIV-1; target: Integrase; measure: IC50

An empty or dashed field is not shown. ICn is the concentration giving n% inhibition. Conditions beyond the fields shown may differ between rows. a–b is a range or a potency band.

structure,mutations,method,result
N#C/C(=C\c1ccc(O)c(O)c1)C(=O)OCc1ccccc1COC(=O)/C(C#N)=C/c1ccc(O)c(O)c1,,3′ processing / substrate cleavage,3 µM
O=C(O)CC(C(=O)O)c1ccc(N=Nc2c(S(=O)(=O)O)cc3cc(NC(=O)Nc4ccc5c(O)c(N=Nc6ccc(C(CC(=O)O)C(=O)O)cc6)c(S(=O)(=O)O)cc5c4)ccc3c2O)cc1,,strand transfer,0.7 µM
O=C1c2c(O)c(=O)c(-c3nccs3)cn2CCN1Cc1cccc(F)c1,,ELISA,0.01–0.1 µM
CCCCN(CCCC)CCCn1c(=O)c(O)c2n(c1=O)CCN(Cc1ccc(F)cc1)C2=O,,strand transfer,<10 µM
N#C/C(=C\c1ccc(O)c(O)c1)C(=O)NCCCCc1ccccc1,,strand transfer,10–100 µM
CC(c1cccc2ccccc12)n1c(=O)c(O)c2n(c1=O)CCN(Cc1ccc(F)cc1)C2=O,,strand transfer,<10 µM
O=C(NCc1ccc(F)cc1)c1nc2n(c(=O)c1O)CN1CCSC21,,ELISA,<10 µM
CC(C)n1c(=O)c(O)c2n(c1=O)C(CCN1CCOCC1)CN(Cc1ccc(F)cc1)C2=O,,strand transfer,<10 µM
CC(C)c1cn(Cc2ccc(F)c(Cl)c2)c(=O)c2c(O)c(=O)ccn12,,ELISA,<0.01 µM
CC(=O)NC1CN(C)CCn2c1nc(C(=O)NCc1ccc(F)cc1)c(O)c2=O,,ELISA,<10 µM
O=C(C1=NS(=O)(=O)c2ccc(Cl)cc2S1)c1ccc(Cl)cc1,,3′ processing,100 µM
N#C/C(=C\c1ccc(O)c(O)c1)C(=O)NCCCCCNC(=O)/C(C#N)=C/c1ccc(O)c(O)c1,,strand transfer,5–10 µM
O=C(/C=C/c1ccc(O)c(O)c1)OCCc1ccccc1N=C=S,C56S,3′ processing,23 µM
O=C1/C(=C/c2cc(O)c(O)c(O)c2)CSC/C1=C\c1cc(O)c(O)c(O)c1,,strand transfer,0.5 µM
COc1ccc(C(=O)C2=NS(=O)(=O)c3cc(C)c(Cl)cc3S2)cc1,,3′ processing,30 µM
Cc1nn(Cc2cccc(Cl)c2)c(=O)c2c(O)c(=O)ccn12,,ELISA,0.01–0.1 µM
O=C(CCCCCNC(=O)CCCC[C@@H]1SC[C@@H]2NC(=O)N[C@@H]21)NCCCCCC(=O)NCc1cn(Cc2ccc(C(=O)c3cccc(/C(O)=C/C(=O)C(=O)O)c3)cc2)nn1,,3′ processing,>333 µM
O=C(O)/C=C/c1ccc(N=Nc2c(S(=O)(=O)O)cc3cc(NC(=O)C(=O)Nc4ccc5c(O)c(N=Nc6ccc(/C=C/C(=O)O)cc6)c(S(=O)(=O)O)cc5c4)ccc3c2O)cc1,,strand transfer,2.3 µM
O=C(/C=C/c1ccc(O)c(O)c1)OCCc1cccc(N=C=S)c1,C56S,3′ processing,23 µM
O=C1/C(=C/c2ccc(Cl)c(Cl)c2)CSC/C1=C\c1ccc(Cl)c(Cl)c1,,3′ processing,>100 µM
CC(C)C(O)c1cc(=O)c(O)c2n1CCN(Cc1ccc(Cl)c(Cl)c1)C2=O,,ELISA,0.01–0.1 µM
COC(=O)C(CCCCNC(=O)/C=C/c1ccc(O)c(O)c1)NC(=O)/C=C/c1ccc(O)c(O)c1,,3′ processing,<10 µM
Cc1cc2c(cc1Cl)SC(C(=O)c1ccccc1)=NS2(=O)=O,INTG-C65S,3′ processing,90 µM
CN1CCN(C(=O)CN2CCn3c(nc(C(=O)NCc4ccc(F)cc4)c(O)c3=O)C2(C)C)CC1,,ELISA,<10 µM
N#C/C(=C\c1cc(O)c(O)c(O)c1)C(=O)NCCCNC(=O)/C(C#N)=C/c1cc(O)c(O)c(O)c1,,disintegration,2 µM
[N-]=[N+]=NCc1ccc(C(=O)c2cccc(/C(O)=C/C(=O)C(=O)O)c2)cc1,,3′ processing,>333 µM
N#C/C(=C\c1ccc(O)c(O)c1)C(=O)NC1CCC(CC2CCC(NC(=O)/C(C#N)=C/c3ccc(O)c(O)c3)CC2)CC1,,strand transfer,3 µM
O=C(NCCCC[C@H](NC(=O)c1ccc(O)c(O)c1)C(=O)O)c1ccc(O)c(O)c1,,3′ processing,>10 µM
CNc1cc2c(=O)c(C(=O)O)cn(C)c2cc1N1CCN(c2ccccn2)CC1,,,>100 µM
O=c1ccn2ccn(CCCc3ccc(Cl)c(Cl)c3)c(=O)c2c1O,,ELISA,0.01–0.1 µM
COc1ccc(/C=C/C(=O)OCCc2ccc(N=C=S)cc2)cc1OC,,3′ processing,>100 µM
CN1CCn2c(nc(C(=O)NCc3ccc(F)cc3)c(O)c2=O)C(NC(=O)C(=O)N(C)C)C1,,ELISA,<10 µM
O=c1ccn2c(CO)cn(Cc3cccc(Cl)c3)c(=O)c2c1O,,ELISA,0.01–0.1 µM
OC(/C=C/c1ccc(Cl)c(Cl)c1)/C=C/c1ccc(Cl)c(Cl)c1,,3′ processing,>100 µM
CN(C(=O)c1cn2ccn(Cc3cccc(Cl)c3)c(=O)c2c(O)c1=O)S(C)(=O)=O,,ELISA,<0.01 µM
O=C(Nc1ccc2c(O)c(N=Nc3c(F)c(F)c(C(=O)O)c(F)c3F)c(S(=O)(=O)O)cc2c1)Nc1ccc2c(O)c(N=Nc3c(F)c(F)c(C(=O)O)c(F)c3F)c(S(=O)(=O)O)cc2c1,,3′ processing,0.2 µM
O=C(O)CC1C/C(=C\c2cc(O)c(O)c(O)c2)C(=O)/C(=C/c2cc(O)c(O)c(O)c2)C1,,strand transfer,0.2 µM
N#C/C(=C\c1cc(O)c(O)c([N+](=O)[O-])c1)C(=O)NCCCNC(=O)/C(C#N)=C/c1cc(O)c(O)c([N+](=O)[O-])c1,,3′ processing / substrate cleavage,3.3 µM
O=C(/C=C/c1cc(O)c(O)c(O)c1)NCCCC(NC(=O)/C=C/c1cc(O)c(O)c(O)c1)C(=O)O,,3′ processing,0.38 µM
OC1/C(=C/c2ccc(Cl)c(Cl)c2)CCC/C1=C\c1ccc(Cl)c(Cl)c1,,strand transfer,>100 µM
CN1C(C)(C)CC(n2c(=O)c(O)c3n(c2=O)CCN(Cc2ccc(F)cc2)C3=O)CC1(C)C,,strand transfer,<10 µM
O=C(NCc1ccc(F)cc1)c1nc[nH]c(=O)c1O,,,1.5 µM
CN(CCOc1ccc(Cl)cc1Cc1ccccc1)C(=O)/C=C(\O)C(=O)O,,strand transfer,<70 µM
CC(C)n1c(=O)c(O)c2n(c1=O)CCN(Cc1cc3ccccc3cn1)C2=O,,strand transfer,<10 µM
CCOC(=O)C1C/C(=C\c2cc(O)c(O)c(O)c2)C(=O)/C(=C/c2cc(O)c(O)c(O)c2)C1,,disintegration,0.3 µM
O=C(O)/C(O)=C/C(=O)N(Cc1ccc(F)cc1)Cc1ccc(F)cc1F,,strand transfer,<70 µM
Cc1ccc(-c2c([C@H](OC(C)(C)C)C(=O)O)c(C)nc3ccccc23)cc1C,A128T,strand transfer / fluorescence,0.0397 µM
CC(=O)N(C)CCC1CN(Cc2ccc(F)cc2)C(=O)c2c(O)c(=O)n(C(C)C)c(=O)n21,,strand transfer,<10 µM
Cc1cc2c(cc1Cl)SC(C(=O)c1ccc(Cl)cc1)=NS2(=O)=O,INTG-C65S,strand transfer,33 µM
O=C1/C(=C/c2cc(O)c(O)c(O)c2)CC(C(=O)O)C/C1=C\c1cc(O)c(O)c(O)c1,,disintegration,1.2 µM
CC(c1ccc(F)cc1)N(C)C(=O)/C=C(\O)C(=O)O,,strand transfer,<70 µM
O=C1c2c(O)c(=O)n(Cc3nccc4ccccc34)c(=O)n2CCN1Cc1ccc(F)cc1,,strand transfer,<10 µM
CN(Cc1cccc(-c2ccccc2)c1)C(=O)/C=C(\O)C(=O)O,,strand transfer,<70 µM
O=C(/C=C/c1ccc(O)c(O)c1)NCCCC[C@H](NC(=O)/C=C/c1ccc(O)c(O)c1)C(=O)O,,3′ processing,<10 µM
O=C(Nc1ccc2c(O)cc(S(=O)(=O)O)cc2c1)Nc1ccc2c(O)cc(S(=O)(=O)O)cc2c1,,strand transfer,4 µM
O=C(O)/C(O)=C/C(=O)N(Cc1ccc(F)cc1)Cc1ccc(F)c(F)c1,,strand transfer,<70 µM
CCCCN(C)C(=O)c1cn2ccn(Cc3cccc(Cl)c3)c(=O)c2c(O)c1=O,,ELISA,0.01–0.1 µM
CC(C)n1c(=O)c(O)c2n(c1=O)C(COCc1ccccc1)CN(Cc1ccc(F)cc1)C2=O,,strand transfer,<10 µM
N#C/C(=C\c1ccc(O)c(O)c1)C(=O)c1ccc(O)c(O)c1,,3′ processing / substrate cleavage,1 µM
O=C(/C=C/c1ccc(O)c(O)c1)OCCc1ccccc1,C56S,3′ processing,35 µM
Cc1cc(Cl)cc2c1S(=O)(=O)N=C(C(=O)c1ccc(Cl)cc1)S2,INTG-C65S,strand transfer,65 µM
CN(Cc1cccc(Cl)c1)C(=O)/C=C(\O)C(=O)O,,strand transfer,<70 µM
O=C(NCc1ccc(F)cc1)c1occc(=S)c1O,,strand transfer,11.5 µM
CC(C)NC(=O)N(C)CCC1CN(Cc2ccc(F)cc2)C(=O)c2c(O)c(=O)n(C(C)C)c(=O)n21,,strand transfer,<10 µM
O=C(/C=C/c1ccccc1)OCCc1ccc(N=C=S)cc1,C56S,3′ processing,>100 µM
O=C(O)c1ccc(N=Nc2c(S(=O)(=O)O)cc3cc(S(=O)(=O)O)c(N=Nc4ccc(C(=O)O)cc4)c(O)c3c2O)cc1,,3′ processing,2.5 µM

Repeating the final 8 entries:

structure,mutations,method,result
N#C/C(=C\c1ccc(O)c(O)c1)C(=O)c1ccc(O)c(O)c1,,3′ processing / substrate cleavage,1 µM
O=C(/C=C/c1ccc(O)c(O)c1)OCCc1ccccc1,C56S,3′ processing,35 µM
Cc1cc(Cl)cc2c1S(=O)(=O)N=C(C(=O)c1ccc(Cl)cc1)S2,INTG-C65S,strand transfer,65 µM
CN(Cc1cccc(Cl)c1)C(=O)/C=C(\O)C(=O)O,,strand transfer,<70 µM
O=C(NCc1ccc(F)cc1)c1occc(=S)c1O,,strand transfer,11.5 µM
CC(C)NC(=O)N(C)CCC1CN(Cc2ccc(F)cc2)C(=O)c2c(O)c(=O)n(C(C)C)c(=O)n21,,strand transfer,<10 µM
O=C(/C=C/c1ccccc1)OCCc1ccc(N=C=S)cc1,C56S,3′ processing,>100 µM
O=C(O)c1ccc(N=Nc2c(S(=O)(=O)O)cc3cc(S(=O)(=O)O)c(N=Nc4ccc(C(=O)O)cc4)c(O)c3c2O)cc1,,3′ processing,2.5 µM